# Laboratory results: PubChem BioAssay AID624099 (ICCB-Longwood, 2012)
# Test: 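Host factors E2 relies on to silence an HPV18 LCR reporter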 (primary screen)
# Cells: human C33A cervical carcinoma cells (HPV-negative) stably expressing BPV1 E2 and an HPV18 LCR luciferase reporter
# Reagent: siRNA pool against human genes, 40 nM
# Duration: 72 h
# Detection: 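Per-well luciferase luminescence, z-scored on each plate against the plate mean and SD with control wells left out, then averaged across three replicate plates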
# Reading the numbers: mean z-score and z-score: higher = stronger reporter signal, weaker E2 silencing
# Hit rule: 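Hit if mean z-score reaches 2 and two or more of three replicate z-scores also reach 2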
# Here is an unselected part of about 21,000 reagents tested. Over the whole deposit, 497 (2.4%) are marked active. 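Higher z means weaker E2 silencing; only reporter increases were scored, and knock-downs that hurt cell survival may mask genuine repressor factors.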 A number with no mark means an inactive call. Reagents against one gene are numbered here.
The opening 5 entries, to show the layout:
gene,reagent no.,mean z-score,"z-score, replicate A","z-score, replicate B","z-score, replicate C"
TMX1 (thioredoxin related transmembrane protein 1),1,0.12,0.3,-0.38,0.43
DRC2 (dynein regulatory complex subunit 2),1,-0.85,-0.45,-1.08,-1.02
LOC390569 (retired record),1,3.46 (active),3.27,2.66,4.46
SLC8B1,1,-0.45,-0.52,-0.33,-0.5
SLC35E3,1,-0.02,0.1,-0.04,-0.11

Results, from the first entry:
gene,reagent no.,mean z-score,"z-score, replicate A","z-score, replicate B","z-score, replicate C"
TMX1 (thioredoxin related transmembrane protein 1),1,0.12,0.3,-0.38,0.43
DRC2 (dynein regulatory complex subunit 2),1,-0.85,-0.45,-1.08,-1.02
LOC390569 (retired record),1,3.46 (active),3.27,2.66,4.46
SLC8B1,1,-0.45,-0.52,-0.33,-0.5
SLC35E3,1,-0.02,0.1,-0.04,-0.11
RPS17 (ribosomal protein S17),1,-1.55,-1.57,-1.5,-1.57
RNF146 (ring finger protein 146),1,1.2,0.54,1.11,1.95
KTN1 (kinectin 1),1,1.64,1.61,1.52,1.77
SLC38A9,1,-0.64,-0.61,-0.67,-0.64
COX8C (cytochrome c oxidase subunit 8C),1,-0.43,-0.52,-0.63,-0.14
APH1B (aph-1B gamma-secretase subunit),1,0.67,0.52,0.76,0.71
APH1B (aph-1B gamma-secretase subunit),2,-0.2,-0.2,-0.56,0.15
ATAD2 (ATPase family AAA domain containing 2),1,-0.79,-0.66,-0.44,-1.27
AAAS (aladin WD repeat nucleoporin),1,1.2,1.23,1.09,1.27
NDUFA6 (NADH:ubiquinone oxidoreductase subunit A6),1,-0.48,-0.34,-0.34,-0.75
OR2AT4 (olfactory receptor family 2 subfamily AT member 4),1,0.12,0.08,-0.11,0.39
SLAIN1 (SLAIN family member 1),1,1.09,0.94,1.1,1.24
ANKRD22 (ankyrin repeat domain 22),1,0.37,0.54,0.15,0.42
ACIN1 (apoptotic chromatin condensation inducer 1),1,-1.48,-0.96,-1.65,-1.81
SLC18A3,1,0.37,0.45,0.53,0.13
ANTXR2 (ANTXR cell adhesion molecule 2),1,-0.17,-0.43,-0.2,0.1
DIP2B (DIP2 acetate--CoA ligase B (putative)),1,1.81,1.91,1.48,2.04
TTC32 (tetratricopeptide repeat domain 32),1,-0.17,-0.34,-0.23,0.06
GUCA2B (guanylate cyclase activator 2B),1,2.25 (active),2.22,1.98,2.54
GPATCH8 (G-patch domain containing 8),1,1.61,1.83,1.48,1.53
HABP4 (hyaluronan binding protein 4),1,0.27,0.04,0.26,0.52
KIF6 (kinesin family member 6),1,-0.2,-0.05,-0.22,-0.34
C19orf81 (chromosome 19 open reading frame 81),1,-1.03,-1.13,-0.79,-1.17
ODF4 (outer dense fiber of sperm tails 4),1,-1.12,-0.93,-0.9,-1.53
CD320 (CD320 molecule),1,-0.69,-0.88,-0.44,-0.77
LOC401112 (retired record),1,1.45,1.34,1.18,1.83
GABPB1 (GA binding protein transcription factor subunit beta 1),1,-0.35,-0.04,-0.69,-0.31
"RAB2A (RAB2A, member RAS oncogene family)",1,1.03,1.09,1.16,0.83
C1orf210 (chromosome 1 open reading frame 210),1,-1.79,-1.94,-1.85,-1.58
BROX (BRO1 domain and CAAX motif containing),1,1.42,1.67,1.17,1.42
ZIC3 (Zic family zinc finger 3),1,-1.54,-1.36,-1.64,-1.6
ZNF17 (zinc finger protein 17),1,0.59,0.5,0.83,0.43
"FGD1 (FYVE, RhoGEF and PH domain containing 1)",1,0.08,-0.27,0.42,0.1
NDUFA3 (NADH:ubiquinone oxidoreductase subunit A3),1,-0.5,-0.53,-0.38,-0.58
TRAPPC9 (trafficking protein particle complex subunit 9),1,-0.58,-0.4,-0.55,-0.81
SLC4A11,1,-0.33,-0.28,-0.13,-0.58
ZFP69B (ZFP69 zinc finger protein B),1,-0.61,-0.47,-0.58,-0.78
MSI1 (musashi RNA binding protein 1),1,0.47,0.52,0.21,0.7
LOC151273 (retired record),1,0.36,0.61,0.14,0.32
LOC387791 (retired record),1,-1.36,-1.33,-1.51,-1.23
XRCC6 (X-ray repair cross complementing 6),1,0.13,0.24,0.26,-0.12
TMEM86B (transmembrane protein 86B),1,-0.16,-0.39,-0.1,0.01
CCM2L (CCM2 like scaffold protein),1,-0.23,0.38,-0.27,-0.82
GAPDHP72 (glyceraldehyde-3-phosphate dehydrogenase pseudogene 72),1,-0.28,-0.29,-0.18,-0.37
CYP2S1 (cytochrome P450 family 2 subfamily S member 1),1,0.31,0.85,0.16,-0.07
CST4 (cystatin S),1,0,0.11,-0.35,0.25
FAM220A (family with sequence similarity 220 member A),1,-1.34,-1.68,-1,-1.34
TMEM74 (transmembrane protein 74),1,1.95,2.19,1.49,2.18
BNC1 (basonuclin zinc finger protein 1),1,0.39,0.14,0.38,0.65
FAM162A (family with sequence similarity 162 member A),1,1.01,1.33,0.86,0.82
CUL4A (cullin 4A),1,-0.08,-0.2,-0.2,0.15
ZMAT4 (zinc finger matrin-type 4),1,2.07,1.89,1.92,2.4
FAM149A (family with sequence similarity 149 member A),1,-0.9,-0.96,-0.87,-0.86
TRIM23 (tripartite motif containing 23),1,0.45,0.7,0.25,0.39
LOC400092 (retired record),1,0.75,1.43,0.38,0.45
LOC390466 (retired record),1,-0.11,-0.44,0.08,0.03
DDX39B (DExD-box helicase 39B),1,-1.06,-0.74,-1.26,-1.17
MCHR1 (melanin concentrating hormone receptor 1),1,1.61,1.8,1.34,1.68
SMIM7 (small integral membrane protein 7),1,1.16,1.26,1.23,1.01
CA11 (carbonic anhydrase 11 (inactive)),1,-1.02,-0.98,-0.95,-1.13
DZIP1 (DAZ interacting zinc finger protein 1),1,0.36,0.18,0.7,0.19
PSKH1 (protein serine kinase H1),1,-0.14,-0.11,-0.05,-0.25
FN3KRP (fructosamine 3 kinase related protein),1,-1.21,-1.27,-1.11,-1.26
NOMO3 (NODAL modulator 3),1,0.25,0.28,0.38,0.08
OR6B1 (olfactory receptor family 6 subfamily B member 1),1,0.38,0.3,0.61,0.22
OR6B1 (olfactory receptor family 6 subfamily B member 1),2,0.37,0.23,0.41,0.47
CLCN4 (Cl-/H+ antiporter 4),1,-1.36,-1.59,-1.23,-1.27
PGS1 (phosphatidylglycerophosphate synthase 1),1,-0.27,-0.12,-0.66,-0.04
